A mixed list of measured activities; the numbers were collected in NIAID ChemDB.

All rows: enzyme or target tests; organism: HIV-1; protein: Reverse transcriptase

Lines come from different laboratories, so protocols vary. Blank or dashed fields: not listed here. ICn is the concentration giving n% inhibition. Two numbers with a dash give a range or band. Inhibition is in % at the dose shown (toxicity tests: loss of growth or viability). Fold resistance has wild type as its base.

structure | mutations | strain or isolate | measure | dose | method | result
CC(C)c1nnc2c3ccccc3c(N3CCc4ccc(NS(C)(=O)=O)cc4C3)nn12 | - | KER2008 | IC50 | - | RT activity / fluorescence | 0.87 µM
Cc1cc(S(N)(=O)=O)ccc1NC(=O)CSc1nnc(C(F)F)n1-c1ccc(C)c2c1CCCC2 | RT-Y188L | - | fold resistance | - | nucleotide incorporation / radiometric | >2
Cc1c(N2CCc3ccccc3C2)nn2c(C)nnc2c1C | - | KER2008 | IC90 | - | RT activity / fluorescence | 76.7 µM
CCN1C(=O)c2cc(Cl)nnc2N(CC)c2ccc(C)cc21 | - | - | inhibition | 33 µM | - | 15%
CCN1c2ncc(CCOc3ccc(C(=O)O)c4c3CCCC4)cc2C(=O)N(C)c2ccc(F)nc21 | RT-Y188L | - | fold resistance | - | nucleotide incorporation / radiometric | 1–10
C/C1=C\C=C\C2(C)C=C(CO)C(C)CC23OC([O-])C(C3=O)C(O)/C=C/C2(C)C=C(C=O)C(C)CC23OC([O-])C(C3=O)C(O)/C(C)=C/C=C/C2C=C(CO)C(C)CC23OC([O-])C(C3=O)C(O)/C=C/C2(C)C=C(C=O)C(C)CC23OC([O-])C(C3=O)C1O | - | IIIB | inhibition | 0.032 µg/mL | RT activity | 29.3%
O=C(CSc1nnnn1-c1ccc(C2CC2)cc1Cl)Nc1ccc(-c2ccc(OCCN3CCCC3)cc2)cc1Cl | RT-K103 Y181C | - | IC50 | - | PicoGreen / fluorescence | <1 µM
CCN1c2ncc(CCOc3ccc(CC(=O)NN)c4ccccc34)cc2C(=O)N(C)c2ccc(Cl)nc21 | RT-K103N Y181C | - | fold resistance | - | nucleotide incorporation / radiometric | 1
O=C(CSc1nnnn1-c1ccc(C2CC2)cc1Cl)Nc1ccc(C(=O)NCCc2cc[n+]([O-])cc2)cc1Cl | RT-K103 Y181C | - | IC50 | - | PicoGreen / fluorescence | <1 µM
Cc1nnc2c3ccccc3c(N3CCc4c(F)cccc4C3)nn12 | - | 98US_MSC5016 | IC90 | - | RT activity / fluorescence | 19.4 µM
CCN1c2ncc(CCOc3ccc4cc(C(=O)NN)ccc4c3)cc2C(=O)N(C)c2cccnc21 | RT-K103N Y181C | - | fold resistance | - | nucleotide incorporation / radiometric | 1–10
CCCN1c2ccc(C)cc2N(CC)C(=O)c2ccnnc21 | - | - | inhibition | 33 µM | - | 30%
CC(C)(C#Cc1ccc(NC(=O)CSc2nnnn2-c2cc(Br)ccc2Cl)c(Cl)c1)C(=O)O | - | WT | IC50 | - | PicoGreen / fluorescence | <1 µM
O=[N+]([O-])c1ccc2c(c1)CN(c1nn3c(C4CC4)nnc3c3ccccc13)CC2 | - | IIIB | IC50 | - | RT activity / fluorescence | 5.45 µM
CCN1c2ncc(CCOc3ccc(/C=C(\C)C(=O)O)c4ccccc34)cc2C(=O)N(C)c2ccc(C)nc21 | RT-V106A | - | fold resistance | - | nucleotide incorporation / radiometric | >10
CC(C)(C)c1ccc(-n2nnnc2SCC(=O)Nc2ccc(C#CCCCO)cc2Cl)c(Cl)c1 | - | WT | IC50 | - | PicoGreen / fluorescence | <1 µM
CCCN1C(=O)c2ccnnc2N(CC)c2ccc(C)cc21 | - | - | inhibition | 33 µM | - | 32%
CC(C)(C#Cc1ccc(NC(=O)CSc2nnnn2-c2ccc(C3CC3)cc2Cl)c(Cl)c1)OCCN | RT-K103 Y181C | - | IC50 | - | PicoGreen / fluorescence | <1 µM
CCN1c2ncc(CCOc3ccc(C(=O)O)c4c3CCC4)cc2C(=O)N(C)c2cccnc21 | RT-V106A | - | fold resistance | - | nucleotide incorporation / radiometric | 1–10
CC(C)(C)c1ccc(-n2nnnc2SCC(=O)Nc2ccc(-c3ccc(OCCN4CCC(O)CC4)cc3)cc2Cl)c(Cl)c1 | - | WT | IC50 | - | PicoGreen / fluorescence | <1 µM
Oc1ccc2c(c1)CN(c1nn3c(C4CC4)nnc3c3ccccc13)CC2 | - | 98US_MSC5016 | IC50 | - | RT activity / fluorescence | 0.57 µM
COc1ccc(Cl)c(-n2nnnc2SCC(=O)Nc2ccc(C#CC(C)(C)C(=O)O)cc2Cl)c1 | - | WT | IC50 | - | PicoGreen / fluorescence | <1 µM
CCCN1c2ccccc2N(CC)C(=O)c2ccnnc21 | - | - | inhibition | 33 µM | - | 20%
CCCc1ccc(-n2c(Br)nnc2SCC(=O)Nc2ccc(S(N)(=O)=O)cc2C)c2ccccc12 | RT-Y188L | - | fold resistance | - | nucleotide incorporation / radiometric | >2
O=C(CSc1nnnn1-c1ccc(C2CC2)cc1Cl)Nc1ccc(-c2ccc(OCCN3CCCCC3)cc2)c(F)c1Cl | - | WT | IC50 | - | PicoGreen / fluorescence | <1 µM